# Percent effect of library compounds

Measurements from “University of Dundee, Small-Polar-MMV Screening Library” (2021), ChEMBL document CHEMBL3988442.

Mtb glucose medium: 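Phenotypic screen: M. tuberculosis growth, glucose 7H9 medium, 3 days; the read-out is not stated. Tested at 500 µM. The record gives no direction; compounds that gave an IC50 in retests scored well above the rest, so higher reads as more growth inhibition. About 18,000 compounds were tested under these conditions; 7.9% (about 1,400) showed 50% or more at least once.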
Mtb cholesterol medium: 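Growth of Mycobacterium tuberculosis over 4 days (cholesterol / DPPC medium with tyloxapol); the read-out is not stated. Tested at 500 µM. The record gives no direction; compounds that gave an IC50 in retests scored well above the rest, so higher reads as more growth inhibition. Of about 18,000 compounds tested this way, about 900 (5%) reached 50% or more in at least one test.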

Results are given as percent effect. The record does not define 0% and 100%; most values in the screen are far below 50% and negative numbers occur (in some assays of this library far below -100). This is part of a subset picked to be rich in strong results. A dash means the value is not listed here; it may have been measured.

With N#Cc1cc(CN2CCCC(OCCO)C2)ccc1F (centres undefined) the screen gave Mtb glucose medium: 5.215%.
With NCCc1cnn(-c2ccccc2)c1 the screen gave Mtb glucose medium: 70.22%; Mtb cholesterol medium: 62.94%.
With CC(=O)Cn1nc(C)c(Br)c1C the screen gave Mtb glucose medium: 9.268%.
With COC(=O)CNc1cc(Cl)ccc1C(=O)N1CCCC1 the screen gave Mtb cholesterol medium: 4.256%.
With CCC(C)Cn1nc(COC)oc1=O (centres undefined) the screen gave Mtb glucose medium: 16.98%; Mtb cholesterol medium: -3.773%.
With C1CC(COCCc2noc(C3CNC3)n2)CCO1 the screen gave Mtb glucose medium: 90.26%; Mtb cholesterol medium: 74.26%.
With O=C(Cn1cc(Cl)cn1)N1CCC2(CCCNC2)C1 (centres undefined) the screen gave Mtb glucose medium: 7.117%.
With CCn1c(SCC(N)=O)nnc1-c1cccnc1 the screen gave Mtb glucose medium: -11.12%; Mtb cholesterol medium: -4.544%.
With CC(=O)Nc1ccc(N2CCN(S(C)(=O)=O)CC2)cc1 the screen gave Mtb glucose medium: 1.583%.
With CC(C)(C)OC(=O)NCCC(=O)NCC1CCCCN1 (centres undefined) the screen gave Mtb glucose medium: 6.228%.
With NCc1cccc(C(=O)NC2CC2)c1 the screen gave Mtb glucose medium: 7.895%; Mtb cholesterol medium: -3.634%.
With OCCC1CCCN1Cc1ccc2ccccc2n1 (centres undefined) the screen gave Mtb glucose medium: 15.87%.
With Cc1ccccc1C(C)NC(=O)Cn1ccccc1=O (centres undefined) the screen gave Mtb glucose medium: 6.864%.
With CCC(CC)C(CN)N(C)C (centres undefined) the screen gave Mtb glucose medium: 75.06%; Mtb cholesterol medium: 56.05%.
With COc1cc(Cl)ccc1C(=O)N[C@@H]1CCNC[C@H]1O the screen gave Mtb glucose medium: 24.47%.
With CC(C)(C#N)C(=O)NCCNc1cccc(Br)c1 the screen gave Mtb glucose medium: 82.84%; Mtb cholesterol medium: 64.46%.
With CCNC(=O)CNC(=O)C(C)(O)CCc1ccccc1 (centres undefined) the screen gave Mtb glucose medium: 28.73%.
With CC(Nc1cccc(OC(F)(F)F)c1)C(=O)NC(N)=O (centres undefined) the screen gave Mtb glucose medium: 52.78%; Mtb cholesterol medium: 54.57%.
With CCCn1ccnc1CNC(=O)C(O)CCSC (centres undefined) the screen gave Mtb glucose medium: -11.46%.
With CSCC(CCO)Nc1nnnn1-c1ccc(C)cc1 (centres undefined) the screen gave Mtb glucose medium: 38.12%.
With O=C(Nc1ccc2[nH]ncc2c1)C1CCCO1 (centres undefined) the screen gave Mtb glucose medium: 26.17%.
With COc1cccc(C(N)C2CC2)n1 (centres undefined) the screen gave Mtb glucose medium: -4.176%.
With CC(=O)NCCCNCc1ccc(Br)c2cccnc12 the screen gave Mtb glucose medium: 53.68%.
With Cc1cc(=O)[nH]c(C(C)(C)N)n1 the screen gave Mtb glucose medium: 2.392%.
With NCC(CO)Cc1cc(F)ccc1F (centres undefined) the screen gave Mtb glucose medium: 13.7%.
With NC(=O)C1CCC(NC(=O)c2cc(F)cc(F)c2)CC1 (centres undefined) the screen gave Mtb glucose medium: 14.87%.
With Cc1cc(C(=O)N2CCN(C)CC(O)C2)sc1C (centres undefined) the screen gave Mtb cholesterol medium: 6.598%.
With N[C@@H]1CC[C@@H](NC(=O)c2ccc(SCCO)cc2)C1 the screen gave Mtb cholesterol medium: 20.04%.
With NCC(O)c1ccc(F)cc1F (centres undefined) the screen gave Mtb glucose medium: 41.17%.
With COc1ccc(CCN2CCCNCC2)cc1 the screen gave Mtb glucose medium: 71.94%; Mtb cholesterol medium: 62.34%.
With CCN1C[C@@H](CO)[C@H](c2nc(C3CC3)no2)C1 the screen gave Mtb cholesterol medium: 2.358%.
With Cc1cc(N2CCNCC2)nc2ccccc12 the screen gave Mtb glucose medium: 54.21%; Mtb cholesterol medium: 57.97%.
With CC(C)SCC(=O)Nc1cccnc1-n1cccn1 the screen gave Mtb glucose medium: 41.88%.

The first 3 entries again:

compound,Mtb glucose medium,Mtb cholesterol medium
N#Cc1cc(CN2CCCC(OCCO)C2)ccc1F (centres undefined),5.215,-
NCCc1cnn(-c2ccccc2)c1,70.22,62.94
CC(=O)Cn1nc(C)c(Br)c1C,9.268,-